Data: US20120121633A1, “HIV CD4 BINDING SITE BASED COVALENT IMMUNOGEN COMPOSITIONS” (priority 2010, published 2012)

Target: KLH-E-416-433 (HIV-1 gp120, consensus subtype B epitope sequence)

**Q.** “soluble CD4 (from UniProt P01730 26-396) (receptor)” was tested. Which Kd did it give?
**A.** 0.182 µM
